Pooled drug test results. Numbers come from NIAID ChemDB, via PubChem.

Shared fields: growth or infection tests; organism: HIV-1; cells: H9; endpoint: EC50

Lines come from different laboratories, so protocols vary. An empty or dashed field is not shown. a–b is a range or a potency band. ECn is the concentration giving n% inhibition of infection, replication or growth.

compound	strain	changes	read by	value
CCC(c1ccccc1)c1c(O)c2ccccc2oc1=O	IIIB			100–300 µM
CN1N=C(N)c2cn([C@@H]3O[C@H](COP(=O)(O)O)[C@@H](O)[C@H]3O)c3ncnc1c23			RT activity	0.05 µM
Oc1ccc(CC2NCCc3cc(O)c(O)cc32)cc1O	IIIB		p24 / ELISA	>2.5 µg/mL
CCC(C)[C@H](NC(=O)[C@H](C(C)C)[C@@H](O)[C@H](O)[C@H](CC1CCCCC1)NC(=O)c1ccccc1SCCCCC[C@@H]1SC[C@@H]2NC(=O)NC21)C(=O)NCc1ccccn1	IIIB		p24	0.8 µM
COc1ccc(-c2cc(=O)c3c(O)cc(O[C@@H]4O[C@H](CO)[C@H](O)[C@H](O)[C@H]4O)cc3o2)cc1	IIIB		p24	8 µg/mL
O=C(O[C@@H]1Cc2c(O)cc(O)cc2O[C@@H]1c1cc(O)c(O)c(O)c1-c1c([C@H]2Oc3cc(O)cc(O)c3C[C@H]2O)cc(O)c(O)c1O)c1cc(O)c(O)c(O)c1	IIIB		p24	>9.5 µg/mL
O=C(/C=C/c1ccc(O)c2c1[C@H](C(=O)O[C@H](Cc1ccc(O)c(O)c1)C(=O)O)[C@@H](c1ccc(O)c(O)c1)O2)O[C@H](Cc1ccc(O)c(O)c1)C(=O)O				6.9 µM
Nc1ccn([C@H]2CC[C@@H](CO)O2)c(=O)n1	IIIB		p24	0.003 µM
CC(C)=CCC/C(C)=C/C[N@@+]12CCc3cc(O)c(O)cc3[C@H]1Cc1ccc(O)c(O)c1C2	IIIB		p24 / ELISA	>25 µg/mL
CCc1cc(CCc2nc3c(Cl)ccc(Cl)c3o2)c(=O)[nH]c1C	IIIB		p24	<0.025 µM
Nc1nc2c(ncn2CC(CO)CCO)c(=O)[nH]1	IIIB		ELISA	>50 µM
Cc1cn([C@H]2C[C@H](F)[C@@H](CO)O2)c(=O)[nH]c1=O	IIIB		RT activity	0.0174 µM
C=C[C@]1(C)COC(=O)[C@@]12O[C@]1(c3ccccc3)[C@@H]3C(C)=CC[C@H]([C@H](C)CCC=C(C)C)[C@@H]3[C@@H]1C2=O	IIIB		p24	0.798 µg/mL
CCOC(=O)[C@H](CS)NC(=O)CC[C@H](N)C(=O)O	NL4-3		p24	<1600 µM
CC(C)C[C@H](NC(=O)[C@H](C/C=C/c1ccccc1)C[C@H](O)[C@H](Cc1ccccc1)NC(=O)OC(C)(C)C)C(=O)N[C@@H](Cc1ccccc1)C(N)=O	IIIB		antigen	<6 µM
O=C(O)P(=O)(O)O	III		RT activity	<132 µM
Cc1cn([C@H]2C[C@H](N=[N+]=[N-])[C@@H](CO)O2)c(=O)[nH]c1=O	IIIB		p24 / ELISA	0.01 µM
Cc1cn([C@H]2C[C@H](N=[N+]=[N-])[C@@H](CO)O2)c(=O)[nH]c1=O	LAV		RT activity	<0.5 µM
COc1cc2c(c(OC)c1OC)-c1ccc(N(C)C)c(=O)cc1[C@@H](N)CC2	IIIB		p24	0.94 µM
CC(C)=CCC/C(C)=C/C[N+]1(C/C=C(\C)CCC=C(C)C)CCc2cc(O)c(O)cc2[C@H]1Cc1ccc(O)c(O)c1	IIIB		p24 / ELISA	>2.5 µg/mL
Cc1cn([C@H]2C[C@H](N=[N+]=[N-])[C@@H](CO)O2)c(=O)[nH]c1=O				0.032 µg/mL
Cc1cn([C@H]2CC[C@@H](CO)O2)c(=O)[nH]c1=O	LAV		p24	>100 µM
COC(C)(C)C(O)COc1c2ccoc2cc2oc(=O)ccc12				33.3 µg/mL
O=C(O[C@@H]1Cc2c(O)cc(O)cc2O[C@@H]1c1ccc(O)c(O)c1)c1cc(O)c(O)c(O)c1	IIIB		p24	>10 µg/mL
COc1cc2c(c(OC)c1OC)-c1ccc(OC)c(=O)cc1[C@@H](NC(C)=O)CC2	IIIB		p24	0.01 µM
CC1c2cc(O)c(O)cc2CCN1C	IIIB		p24 / ELISA	>2.5 µg/mL
O=C(O[C@@H]1Cc2c(O)cc(O)cc2O[C@@H]1c1ccc(O)cc1)c1cc(O)c(O)c(O)c1	IIIB		p24	>50 µg/mL
Nc1nc2c(ncn2[C@H]2CO[C@@H](CO)O2)c(=O)[nH]1	IIIB		RT activity	0.06 µM
CC(C)C[C@H](NC(=O)[C@H](Cc1ccccc1)C[C@H](O)[C@H](Cc1ccccc1)NC(=O)OC(C)(C)C)C(=O)N[C@@H](Cc1ccccc1)C(N)=O	IIIB		p24	6 µM
Nc1ncnc2c1ncn2[C@H]1C=C(F)[C@@H](CO)O1	IIIB		p24 / ELISA	1 µg/mL
CC(C)=CCC/C(C)=C/COc1cc2cc[n+](C)c(Cc3ccc(O)c(O)c3)c2cc1OC/C=C(\C)CCC=C(C)C	IIIB		p24 / ELISA	>2.5 µg/mL
CCCC1(CCc2ccc(F)cc2)CC(O)=C(C(CC)c2cccc(NS(=O)(=O)c3ccc(C#N)cn3)c2)C(=O)O1	IIIB			0.2 µM
COc1ccc2c(c1)N(C(=O)OC(C)C)[C@@H](CSC)C(=S)N2	B9 (RT L100I V106A G190A)	RT-L100I V106A G190A	p24	>10 µg/mL
CCc1cc(CCc2nc3ccccc3o2)c(=O)[nH]c1C	IIIB		p24	<0.1 µM
COc1cc2c(c(OC)c1O)-c1ccc(SC)c(=O)cc1[C@@H](N)CC2	IIIB		p24	1.1 µM
CC1(C)OC1COc1c2ccoc2cc2oc(=O)ccc12				1.05 µg/mL
CC[C@@H](C(=O)[C@@H](C)[C@@H](O)[C@H](C)CCc1ccc(C)c(O)c1C(=O)O)[C@H]1O[C@](CC)([C@H]2CC[C@](O)(CC)[C@H](C)O2)C[C@@H]1C	IIIB		RT activity	2.37 µg/mL
Nc1ncnc2c1ncn2[C@H]1CC[C@@H](CO)O1	LAV		p24	>1 µM
CC[C@@H](C(=O)[C@@H](C)[C@@H](O)[C@H](C)[C@@H]1O[C@@H]([C@@H](CC)C(=O)O)CC[C@@H]1C)[C@H]1O[C@@]2(C=C[C@@H](O)[C@@]3(CC[C@@](C)([C@H]4CC[C@](O)(CC)[C@H](C)O4)O3)O2)[C@H](C)C[C@@H]1C	IIIB		RT activity	0.4 µg/mL
O=C(O)P(O)(O)=S			p24	50 µM
CC[C@H](C)[C@H](NC(=O)[C@H](C/C=C/c1ccccc1)C[C@H](O)[C@H](Cc1ccccc1)NC(=O)OC(C)(C)C)C(=O)NCc1nc2ccccc2[nH]1	RF		antigen	<0.012 µM
CCCC1(CCC)CC(O)=C(C(CC)c2cccc(NS(=O)(=O)c3ccc(C#N)cc3)c2)C(=O)O1	IIIB			1.9 µM
COc1c2c(cc3c1-c1c(cc4c(c1OC)OCO4)C(OC(=O)c1ccccc1)[C@H](C)[C@@H](C)C3)OCO2	IIIB		p24	3.1 µg/mL
COc1cc2ccc(=O)oc2c(CC=C(C)C)c1OC	IIIB		p24	0.576 µg/mL
Cc1cn([C@H]2C[C@H](N=[N+]=[N-])[C@@H](CO)O2)c(=O)[nH]c1=O	IIIB		p24	0.014 µM
Cc1cn([C@H]2C[C@H](N=[N+]=[N-])[C@@H](CO)O2)c(=O)[nH]c1=O	IIIB			>100 µM
CC1(C)OC1COc1c2ccoc2cc2oc(=O)ccc12	IIIB		p24	31.5 µM
COc1c2ccoc2nc2c(OC)c(O)ccc12	IIIB		p24	0.634 µg/mL
CC(C)=CCC/C(C)=C/C[N+]1(C/C=C(\C)CCC=C(C)C)CCc2cc(O)c(O)cc2[C@H]1C	IIIB		p24 / ELISA	>2.5 µg/mL
O=C(O[C@@H]1Cc2c(O)cc(O)c(Cc3c(O)cc(O)c4c3O[C@H](c3cc(O)c(O)c(O)c3)[C@H](OC(=O)c3cc(O)c(O)c(O)c3)C4)c2O[C@@H]1c1cc(O)c(O)c(O)c1)c1cc(O)c(O)c(O)c1	IIIB		p24	>45 µg/mL
CCCC1(CCc2ccccc2)CC(O)=C(C(c2cccc(NS(=O)(=O)c3ccc(C#N)cn3)c2)C2CC2)C(=O)O1	IIIB			0.17 µM
C=C(C)OC(=O)N1c2cc(Cl)ccc2NC(=S)C1(C)C	MN		p24	0.007 µM
CCC(C1=C(O)CC(CCC2CC2)(CCC2CC2)OC1=O)c1cccc(NS(=O)(=O)c2ccc(C#N)cn2)c1	IIIB			0.3 µM
CC(C)(O)[C@H]1Cc2cc3ccc(=O)oc3cc2O1	IIIB		p24	>203.9 µM
Nc1ccn([C@H]2CC[C@@H](CO)O2)c(=O)n1	RF		p24	0.05 µM
Fc1cccc(F)c1C1SCc2nc3ccccc3n21	RF		RT activity	2.26 µM
C/C=C1/[C@H](O[C@@H]2O[C@H](CO)[C@@H](O)[C@H](O)[C@H]2O)OC=C(C(=O)OC)[C@H]1CC(=O)OCCc1ccc(O)c(O)c1	IIIB		p24	0.073 µM
COc1c(O)ccc2c1cnc1c3cc4c(cc3ccc21)OCO4	IIIB		p24	<0.1 µg/mL
Cc1cn([C@H]2C[C@H](F)[C@@H](CO)O2)c(=O)[nH]c1=O	IIIB		p24 / ELISA	0.01 µM
N#Cc1ccc(S(=O)(=O)Nc2cccc(C(c3c(O)c4c(oc3=O)CCCCCC4)C3CC3)c2)cc1	IIIB			1.5 µM
COc1c2ccoc2cc2oc(=O)ccc12	IIIB		p24	0.354 µg/mL
COC1CCC(OC2CC(C)(C3CCC(C4OC(C)(O)C(C)CC4C)O3)OC2C2(C)CC(C)C3(OC(CC4OC(O)(C(C)C(=O)O)C(C)C(OC)C4OC)CC(OC)C3C)O2)OC1C	IIIB		RT activity	0.64 µg/mL
O=C(O[C@@H]1Cc2c(O)cc(O)c([C@@H]3c4c(O)cc(O)cc4O[C@H](c4cc(O)c(O)c(O)c4)[C@H]3O)c2O[C@@H]1c1cc(O)c(O)c(O)c1)c1cc(O)c(O)c(O)c1	IIIB		p24	>9 µg/mL
CC1(C)O[C@@H]1COc1c2occc2cc2ccc(=O)oc12				2.37 µg/mL
CC(C)C[C@H](NC(=O)[C@H](Cc1ccccc1)C[C@H](O)[C@H](Cc1ccccc1)NC(=O)OC(C)(C)C)C(N)=O	IIIB		antigen	<6 µM
C/C=C(/C)C(=O)O[C@@H]1c2c(ccc3ccc(=O)oc23)OC(C)(C)[C@@H]1OC(C)=O	IIIB		p24	4.6 µM
O=C1NC(=O)C(c2ccccc2)(c2ccccc2)N1	IIIB		p24	<20 µg/mL
CC1=C(C(=O)Nc2ccc(Cl)c(C(=O)OC(C)C)c2)SCCO1	RF			1 µM
CCCC1(CCC)CC(O)=C(C(CC)c2cccc(NS(=O)(=O)c3ccc(C(F)(F)F)cn3)c2)C(=O)O1	IIIB			0.16 µM
Cc1ccnc2c1NC(=O)c1cccnc1N2C1CC1	B9 (RT L100I V106A G190A)	RT-L100I V106A G190A	p24	>10 µg/mL
Cc1cn([C@H]2C=C[C@@H](CO)O2)c(=O)[nH]c1=O	RF		p24	0.8 µM
CC(C)=CCC/C(C)=C/C[N@+]12CCc3cc(O)c(O)cc3[C@H]1Cc1ccc(O)c(O)c1C2	IIIB		p24 / ELISA	>2.5 µg/mL
COc1c2c(nc3ccccc13)O[C@@H](C(C)(C)O)C2	IIIB		p24	1.34 µg/mL
O=c1oc(-c2ccccc2)cc(O)c1C(CC1CC1)SC1CCCCC1	IIIB		p24	25 µM

Repeating the first 10 entries:

compound	strain	changes	read by	value
CCC(c1ccccc1)c1c(O)c2ccccc2oc1=O	IIIB			100–300 µM
CN1N=C(N)c2cn([C@@H]3O[C@H](COP(=O)(O)O)[C@@H](O)[C@H]3O)c3ncnc1c23			RT activity	0.05 µM
Oc1ccc(CC2NCCc3cc(O)c(O)cc32)cc1O	IIIB		p24 / ELISA	>2.5 µg/mL
CCC(C)[C@H](NC(=O)[C@H](C(C)C)[C@@H](O)[C@H](O)[C@H](CC1CCCCC1)NC(=O)c1ccccc1SCCCCC[C@@H]1SC[C@@H]2NC(=O)NC21)C(=O)NCc1ccccn1	IIIB		p24	0.8 µM
COc1ccc(-c2cc(=O)c3c(O)cc(O[C@@H]4O[C@H](CO)[C@H](O)[C@H](O)[C@H]4O)cc3o2)cc1	IIIB		p24	8 µg/mL
O=C(O[C@@H]1Cc2c(O)cc(O)cc2O[C@@H]1c1cc(O)c(O)c(O)c1-c1c([C@H]2Oc3cc(O)cc(O)c3C[C@H]2O)cc(O)c(O)c1O)c1cc(O)c(O)c(O)c1	IIIB		p24	>9.5 µg/mL
O=C(/C=C/c1ccc(O)c2c1[C@H](C(=O)O[C@H](Cc1ccc(O)c(O)c1)C(=O)O)[C@@H](c1ccc(O)c(O)c1)O2)O[C@H](Cc1ccc(O)c(O)c1)C(=O)O				6.9 µM
Nc1ccn([C@H]2CC[C@@H](CO)O2)c(=O)n1	IIIB		p24	0.003 µM
CC(C)=CCC/C(C)=C/C[N@@+]12CCc3cc(O)c(O)cc3[C@H]1Cc1ccc(O)c(O)c1C2	IIIB		p24 / ELISA	>25 µg/mL
CCc1cc(CCc2nc3c(Cl)ccc(Cl)c3o2)c(=O)[nH]c1C	IIIB		p24	<0.025 µM